Experimental data: PubChem BioAssay AID624099 (ICCB-Longwood, 2012)

Purpose: 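Host factors E2 relies on to silence an HPV18 LCR reporter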 (primary screen)
Cell system: human C33A cervical carcinoma cells (HPV-negative) stably expressing BPV1 E2 and an HPV18 LCR luciferase reporter
Knock-down reagent: siRNA pool against human genes, 40 nM
Duration: 72 h
Read-out: 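Per-well luciferase luminescence, z-scored on each plate against the plate mean and SD with control wells left out, then averaged across three replicate plates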
Direction: mean z-score and z-score: higher = stronger reporter signal, weaker E2 silencing
Call rule: 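Mean z ≥ 2 together with z ≥ 2 in two or more of the three replicates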
In all, the deposit lists about 21,000 reagents; shown is an unselected part. 497 of all reagents (2.4%) count as active. 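Higher z means weaker E2 silencing; only reporter increases were scored, and knock-downs that hurt cell survival may mask genuine repressor factors.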 Reagents against one gene are numbered here.

no.	gene symbol	reagent	mean z-score	z-score, replicate A	z-score, replicate B	z-score, replicate C	call
1	PLXNB3	1	-0.2	-0.23	-0.31	-0.05	inactive
2	SLC27A1	1	-0.54	-0.29	-0.97	-0.37	inactive
3	KNTC1	1	0.09	-0.05	0.23	0.09	inactive
4	MMAB	1	0.42	-0.11	0.64	0.72	inactive
5	PSKH1	1	-0.14	-0.11	-0.05	-0.25	inactive
6	S1PR3	1	-1.49	-1.5	-1.36	-1.6	inactive
7	S1PR3	2	0.28	0.36	0.31	0.17	inactive
8	MRGPRX3	1	-0.32	0.04	-0.59	-0.42	inactive
9	ZNF408	1	-0.59	-0.57	-0.71	-0.5	inactive
10	IL23A	1	0.8	1.31	0.42	0.68	inactive
11	FAM20B	1	0.64	0.6	0.7	0.61	inactive
12	INPP5B	1	1.1	1.43	0.92	0.97	inactive
13	CDC42EP5	1	0.2	0.19	0.67	-0.26	inactive
14	LOC390426 (retired record)	1	-0.69	-0.66	-0.6	-0.81	inactive
15	LBX1-AS1	1	-0.31	-0.2	-0.67	-0.06	inactive
16	LMLN	1	-1.06	-1.22	-1.07	-0.9	inactive
17	LRR1	1	-0.48	-0.7	-0.31	-0.44	inactive
18	SLC44A5	1	-0.61	-0.99	-0.78	-0.07	inactive
19	LINC01011	1	0.18	0.94	0	-0.38	inactive
20	UROD	1	0.4	0.61	0.18	0.4	inactive
21	GGT5	1	-1.31	-1.12	-1.41	-1.39	inactive
22	CYP3A43	1	-0.13	0.04	-0.68	0.24	inactive
23	PLCD3	1	-0.72	-0.96	-0.65	-0.53	inactive
24	EED	1	0.05	0	-0.02	0.15	inactive
25	LOC389248 (retired record)	1	0	-0.17	0.01	0.16	inactive
26	HTRA2	1	-0.5	-0.66	-0.41	-0.42	inactive
27	ZFYVE19	1	-0.91	-0.95	-0.87	-0.92	inactive
28	SMIM14	1	0.9	1.27	0.69	0.74	inactive
29	RFC3	1	0.22	0.08	0.31	0.28	inactive
30	KLK2	1	0.23	0.16	0.28	0.25	inactive
31	SHISA7	1	0.27	0.4	0.15	0.26	inactive
32	LOC162835 (retired record)	1	1.01	1.01	1.31	0.69	inactive
33	NONO	1	0.02	0.29	-0.2	-0.04	inactive
34	PRMT3	1	-0.4	-0.04	-0.51	-0.65	inactive
35	SRR	1	1.68	1.55	1.67	1.81	inactive
36	CEP120	1	-0.1	-0.23	-0.07	0.02	inactive
37	SYDE2	1	-0.91	-1.06	-0.86	-0.83	inactive
38	HABP2	1	-2.4	-2	-2.79	-2.41	inactive
39	PSTK	1	-0.74	-0.69	-0.55	-0.98	inactive
40	TIAM1	1	-0.41	-0.62	-0.32	-0.3	inactive
41	RPS15AP17	1	0.36	0.69	-0.24	0.61	inactive
42	H3-4	1	-0.83	-0.73	-0.78	-0.98	inactive
43	LOC401485 (retired record)	1	0.62	0.59	0.78	0.49	inactive
44	HMHB1	1	0.04	-0.14	0.07	0.19	inactive
45	ZNF763	1	0.25	0.16	0.52	0.09	inactive
46	TESK2	1	-0.6	-0.51	-0.69	-0.61	inactive
47	ERVFRD-1	1	-0.69	-0.38	-0.29	-1.4	inactive
48	CHD2	1	0.19	0.1	0.36	0.1	inactive
49	RALGPS1	1	0.61	0.61	0.6	0.61	inactive
50	IGFN1	1	0.65	0.88	0.17	0.88	inactive
51	LAX1	1	0	0.24	-0.02	-0.21	inactive
52	FBXL13	1	-0.51	-0.79	-0.41	-0.34	inactive
53	SULT1E1	1	0.2	0.35	0.29	-0.03	inactive
54	EXOSC3	1	0.63	0.62	0.67	0.6	inactive
55	ANOS1	1	2.01	1.77	2.24	2.03	active
56	SLC1A4	1	-0.4	-0.35	-0.44	-0.42	inactive
57	RASGRP3	1	0.56	0.36	0.53	0.78	inactive
58	TMSB15B	1	0.68	0.96	0.54	0.55	inactive
59	ZNF44	1	0.93	1.19	0.78	0.82	inactive
60	ZNF44	2	0.9	0.59	1.33	0.78	inactive
61	PLPPR3	1	1.07	1.64	0.9	0.67	inactive
62	UBE2QL1	1	0.15	0.29	0.29	-0.14	inactive
63	GLDN	1	-1.02	-1.09	-1.05	-0.91	inactive
64	TUBB7P	1	-1.6	-1.71	-1.56	-1.52	inactive
65	TEX14	1	-0.37	-0.26	-0.58	-0.26	inactive
66	SLC39A5	1	0.06	0.3	0.23	-0.34	inactive
67	EPHB4	1	0.19	0.47	0.16	-0.06	inactive
68	POLB	1	-1.43	-1.39	-1.33	-1.57	inactive
69	CACNA1G	1	0.75	0.63	0.82	0.79	inactive
70	COL6A2	1	-0.62	-0.58	-0.47	-0.81	inactive
71	TRMT5	1	1.1	1.08	1.49	0.74	inactive
72	C5orf58	1	-0.34	-0.48	-0.29	-0.26	inactive
73	ADPRS	1	-0.29	-0.02	-0.64	-0.2	inactive

Hits (from the list above):
gene symbol	reagent	mean z-score	z-score, replicate A	z-score, replicate B	z-score, replicate C	call
ANOS1	1	2.01	1.77	2.24	2.03	active
